The values below are quoted from earlier work in publication doi:10.1101/2025.05.02.651913 (bioRxiv, 2025).

The test system of this series is Clade I MPXV. As to conditions: cited from earlier work.

B1: IFN-β (protein, UniProt P01574 22-187, looked up)
Interferon beta: MSYNLLGFLQRSSNFQCQKLLWQLNGRLEYCLKDRMNFDIPEEIKQLQQFQKEDAALTIYEMLQNIFAIFRQDSSSTGWNETIVENLLANVYHQINHLKTVLEEKLEKEDFTRGKLMSSLHLKRYYGRILHYLKAKEYSHCAWTIVRVEILRNFYFINRLTGYLRN
B1: the “Clade I MPXV infection in vitro” value is given as “significantly reduce Clade I MPXV infection”.
